In test [1] the test system is F. tularensis strain 17135. Kind of test: standard minimum inhibitor concentration (MIC) assay, strain 17135. The format is cell-based.
In test [2] the test system is F. tularensis strain 17137. As to the kind of experiment: standard minimum inhibitor concentration (MIC) assay, strain 17137. The test is classed as cell-based.
A further test deals with Ft FabI (Francisella tularensis subsp. tularensis, UniProt Q5NGQ3). As to the kind of experiment: Ft FabI inhibition dose response assay (NADH consumption, absorbance at 340 nm). The note with it: read-out: Ft FabI IC50; compounds titrated from 30 to 0.025 uM; 25 uM crotonyl-ACP, 50 uM NADH.

In brackets after ≈: the same amount, converted by molar mass.

Usually MIC stands for the smallest concentration in the dilution series that meets the test's criterion for growth inhibition. A higher MIC goes with a need for much substance. One may read the IC50 as the concentration at which inhibition is half-maximal. Consider `CN(Cc1cc2ccccc2n1C)C(=O)/C=C/c1cnc2c(c1)CCC(=O)N2`, for which the minimal inhibitory concentration (MIC) in test [1] came out at 0.5 µg/mL (≈ 1.34 µM); in test [2] it was 2 µg/mL (≈ 5.34 µM). Moreover, the IC50 on Ft FabI is 47 nM.

The values above are taken from US7601526B2 (priority 2004, dated 2009).
